Pooled drug test results. Numbers come from NIAID ChemDB, via PubChem.

All rows: whole-cell or culture tests; organism: Aspergillus flavus; method: agar diffusion; measure: zone

Blank or dashed fields: not listed here. Conditions beyond the fields shown may differ between rows. Zone: diameter of growth inhibition.

SMILES | strain or isolate | dose | result
COc1ccccc1/C=C1\SC(c2ccccc2OC)N(NC(=O)CNC(=O)c2ccncc2)C1=O | - | 100 µg/mL | 13.8 mm
O=C(NN1C(=O)CSC1C1C(c2ccccc2)=Nc2ccccc21)N1c2ccccc2C=Cc2ccccc21 | MTCC-1973 | 500 µg/mL | 4 mm
CN1C(=O)/C(=c2/[nH][nH]c(=O)/c2=C\c2ccccc2)C(=O)c2ccccc21 | ATCC 28542 | 1 mg/mL | 12 mm
Clc1ccc(NCc2cc3ccccc3nc2Cl)cc1Cl | MTCC 277 | 200 µg/mL | 18.73 mm
C[C@H]1[C@H](O)[C@@H](C)/C=C/C=C/C=C/C=C/C=C/C=C/C=C/[C@H](O[C@@H]2O[C@H](C)[C@@H](O)[C@H](N)[C@@H]2O)C[C@@H]2O[C@](O)(C[C@@H](O)C[C@@H](O)CC[C@H](O)[C@@H](O)C[C@@H](O)CC(=O)O[C@H]1C)C[C@H](O)[C@H]2C(=O)O | - | 100 µM | 21 mm
O=C(NN=CC1C(c2ccccc2)=Nc2ccc(Cl)cc21)N1c2ccccc2C=Cc2ccccc21 | MTCC-1973 | 750 µg/mL | 12 mm
C=C1SCN(NC(=O)CNC(=O)c2ccncc2)C1=O | - | 50 µg/mL | 11 mm
COc1cccc(/C=c2\c(=O)[nH][nH]\c2=C2/C(=O)c3ccccc3N(C)C2=O)c1 | ATCC 28542 | 1 mg/mL | 7 mm
COc1c(N2CC3CCCNC3C2)c(F)cc2c(=O)c(C(=O)[O-])cn(C3CC3)c12.COc1c(N2CC3CCCNC3C2)c(F)cc2c(=O)c(C(=O)[O-])cn(C3CC3)c12.[Cl][Cu+].[Cl][Cu+].c1c[nH]cn1.c1c[nH]cn1 | - | 100 µM | 0 mm
Cn1c(=O)c(-c2[nH][nH]c(=O)c2C=Nc2ccccc2)c(O)c2ccccc21 | ATCC 28542 | 1 mg/mL | 11 mm
Clc1nc2ccccc2cc1CNCc1ccccc1 | MTCC 277 | 200 µg/mL | 14.49 mm
CN(C)c1ccc(/C=C2\SC(c3ccc(N(C)C)cc3)N(NC(=O)CNC(=O)c3ccncc3)C2=O)cc1 | - | 100 µg/mL | 11.4 mm
Cc1ccccc1NCc1cc2ccccc2nc1Cl | MTCC 277 | 200 µg/mL | 7.03 mm
Cc1nn(-c2ccccc2)c2c1C1(C(=O)N(CCCCCCN3C(=O)C4(SCC(=O)N4c4c(C)n(C)n(-c5ccccc5)c4=O)c4cc(F)ccc43)c3ccc(F)cc31)c1c(C)nn(-c3ccccc3)c1O2 | MTCC 277 | 100 µg/mL | 16 mm
COc1ccc(/C=c2\c(=O)[nH][nH]\c2=C2/C(=O)c3ccccc3N(C)C2=O)cc1 | ATCC 28542 | 1 mg/mL | 10 mm
CN(Cc1cc2ccccc2nc1Cl)c1ccc(F)cc1 | MTCC 277 | 200 µg/mL | 17.15 mm
Cc1c(N2C(=O)CSC23C(=O)N(CCCCCCBr)c2ccccc23)c(=O)n(-c2ccccc2)n1C | MTCC 277 | 100 µg/mL | 0 mm
Cc1ccc(C2SCC(=O)N2NC(=O)CNC(=O)c2ccncc2)cc1 | - | 50 µg/mL | 9 mm
Cc1nn(-c2ccccc2)c2c1C1(C(=O)N(CCCCCCN3C(=O)C4(SCC(=O)N4c4c(C)n(C)n(-c5ccccc5)c4=O)c4ccccc43)c3ccccc31)c1c(C)nn(-c3ccccc3)c1O2 | MTCC 277 | 100 µg/mL | 14 mm
O=C(CNC(=O)c1ccncc1)NN1C(=O)/C(=C/c2cccc(Br)c2)SC1c1cccc(Br)c1 | - | 50 µg/mL | 13.4 mm
Cc1ccc2c(c1)C1(C(=O)N2CCCCCCN2C(=O)C3(SCC(=O)N3c3c(C)n(C)n(-c4ccccc4)c3=O)c3cc(F)ccc32)c2c(C)nn(-c3ccccc3)c2Oc2c1c(C)nn2-c1ccccc1 | MTCC 277 | 100 µg/mL | 15 mm
O=C(NN1C(=O)CSC1C1C(c2ccccc2)=Nc2ccc(Cl)cc21)N1c2ccccc2C=Cc2ccccc21 | MTCC-1973 | 750 µg/mL | 13 mm
O=[N+]([O-])c1ccc(NCc2cc3ccccc3nc2Cl)cc1 | MTCC 277 | 200 µg/mL | 8.33 mm
CN(C)c1ccc(C2SCC(=O)N2NC(=O)CNC(=O)c2ccncc2)cc1 | - | 100 µg/mL | 13.5 mm
Cn1c(=O)c(-c2[nH][nH]c(=O)c2N=Nc2ccccc2Cl)c(O)c2ccccc21 | ATCC 28542 | 1 mg/mL | 14 mm

The last 2 rows once more:

SMILES,strain or isolate,dose,result
CN(C)c1ccc(C2SCC(=O)N2NC(=O)CNC(=O)c2ccncc2)cc1,-,100 µg/mL,13.5 mm
Cn1c(=O)c(-c2[nH][nH]c(=O)c2N=Nc2ccccc2Cl)c(O)c2ccccc21,ATCC 28542,1 mg/mL,14 mm